Data taken from PubChem BioAssay (NCATS).
Only a part is listed here, and it is no random draw. Records with an inconclusive call do not appear. The source made the active and inactive calls. Calls come from the whole dose curve; as a rule, active = well fitted inhibition curve with a large enough effect; inconclusive = small, poorly fitted or top-dose-only effect; inactive = flat fitted curve, though single readings scatter.

Legend:
Assay in all cases: qHTS profiling for inhibitors of Plasmodium falciparum proliferation (AID 504749); note: nearly all actives have a fitted effect of over 60% in size;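 for activity, negative = inhibition: 0% = DMSO vehicle and full inhibition = artemisinin control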
[1] = test system: CP265; details: P. falciparum in erythrocytes, SYBR Green DNA, 72 h; at 28.7 µM (top of the series) unless noted
Method in brief: (§1)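 Three-day growth assay of blood-stage parasites in erythrocytes (0.3% parasitemia, 2.5% hematocrit) at 37 C, 5% CO2, quantified by SYBR Green DNA staining after overnight detergent lysis.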

[2] = test system: CP266; details: P. falciparum in erythrocytes, SYBR Green DNA, 72 h; at 28.7 µM (top of the series)
Method in brief: as §1

[3] = test system: CP268; details: P. falciparum in erythrocytes, SYBR Green DNA, 72 h; series mostly up to 28.7 µM
Method in brief: as §1

[4] = test system: CP269; details: P. falciparum in erythrocytes, SYBR Green DNA, 72 h; at 28.7 µM (top of the series) unless noted
Method in brief: as §1

[5] = test system: CP286; details: P. falciparum in erythrocytes, SYBR Green DNA, 72 h; series mostly up to 28.7 µM
Method in brief: as §1

[6] = test system: CP291; details: P. falciparum in erythrocytes, SYBR Green DNA, 72 h; series mostly up to 28.7 µM
Method in brief: as §1

[7] = test system: CP297; details: P. falciparum in erythrocytes, SYBR Green DNA, 72 h; series mostly up to 28.7 µM
Method in brief: as §1

[8] = test system: CP305; details: P. falciparum in erythrocytes, SYBR Green DNA, 72 h; series mostly up to 28.7 µM
Method in brief: as §1

[9] = test system: CP315; details: P. falciparum in erythrocytes, SYBR Green DNA, 72 h; at 28.7 µM (top of the series) unless noted
Method in brief: as §1

[10] = test system: CP325; details: P. falciparum in erythrocytes, SYBR Green DNA, 72 h; series mostly up to 28.7 µM
Method in brief: as §1

[11] = test system: CP329; details: P. falciparum in erythrocytes, SYBR Green DNA, 72 h; series mostly up to 28.7 µM
Method in brief: as §1

[12] = test system: CP335; details: P. falciparum in erythrocytes, SYBR Green DNA, 72 h; series mostly up to 28.7 µM
Method in brief: as §1

[13] = test system: DFO2036; details: P. falciparum in erythrocytes, SYBR Green DNA, 72 h; at 28.7 µM (top of the series) unless noted
Method in brief: as §1

[14] = test system: DIV14; details: P. falciparum in erythrocytes, SYBR Green DNA, 72 h; at 28.7 µM (top of the series) unless noted
Method in brief: as §1

[15] = test system: DIV17; details: P. falciparum in erythrocytes, SYBR Green DNA, 72 h; at 28.7 µM (top of the series) unless noted
Method in brief: as §1

[16] = test system: DIV30; details: P. falciparum in erythrocytes, SYBR Green DNA, 72 h; at 28.7 µM (top of the series) unless noted
Method in brief: as §1

[17] = test system: Dd2; details: P. falciparum in erythrocytes, SYBR Green DNA, 72 h; at 28.7 µM (top of the series) unless noted
Method in brief: as §1

[18] = test system: ECU; details: P. falciparum in erythrocytes, SYBR Green DNA, 72 h; at 28.7 µM (top of the series) unless noted
Method in brief: as §1

[19] = test system: FAB9; details: P. falciparum in erythrocytes, SYBR Green DNA, 72 h; at 28.7 µM (top of the series) unless noted
Method in brief: as §1

[20] = test system: GB4; details: P. falciparum in erythrocytes, SYBR Green DNA, 72 h; at 28.7 µM (top of the series) unless noted
Method in brief: as §1
Potency is the fitted concentration of half-maximal effect.

Structure (SMILES)	activity, negative = inhibition [1]	activity, negative = inhibition [2]	Potency [3]	activity, negative = inhibition [4]	Potency [5]	Potency [6]	Potency [7]	Potency [8]	activity, negative = inhibition [9]	Potency [10]	Potency [11]	Potency [12]	activity, negative = inhibition [13]	activity, negative = inhibition [14]	activity, negative = inhibition [15]	activity, negative = inhibition [16]	activity, negative = inhibition [17]	activity, negative = inhibition [18]	activity, negative = inhibition [19]	activity, negative = inhibition [20]
CC(C)OP(=O)(F)OC(C)C	inactive: 1.08%	inactive: -1.73%	inactive	inactive: 0.301%	inactive	inactive	inactive	inactive	inactive: -4.06%	inactive	inactive	inactive	inactive: 0.983%	inactive: -4.67%	inactive: 2.26%	inactive: -10.6%	inactive: 4.72%	inactive: 13%	inactive: 0.899%	inactive: -6.35%
O=[N+]([O-])c1cccc([N+](=O)[O-])c1	inactive: 8.61%		inactive	inactive: -2.63%	inactive	inactive	inactive	inactive	inactive: 0.504%	inactive	inactive	inactive	inactive: 4.73%	inactive: -5.12%	inactive: -10.4%	inactive: 8.96%	inactive: 1.81%	inactive: 1.23%	inactive: 5.06%	inactive: -15%
C/C1=C2N=C(/C=C3N=C(/C(C)=C4\[N-][C@@](C)([C@H]5N=C1[C@@](C)(CCC(=O)NC[C@H](C)OP(=O)([O-])O[C@@H]1[C@H](O)[C@H](n6cnc7cc(C)c(C)cc76)O[C@@H]1CO)[C@@H]5CC(N)=O)[C@](C)(CC(N)=O)[C@H]4CCC(N)=O)[C@@](C)(CC(N)=O)[C@@H]\3CCC(N)=O)C(C)(C)[C@@H]/2CCC(N)=O.[C-]#N.[Co+3]	inactive: 6.84% [at 12.8 µM]		inactive	inactive: -3.94% [at 12.8 µM]	inactive	inactive	inactive	inactive	inactive: 1.49% [at 12.8 µM]	inactive	inactive	inactive	inactive: 1.87% [at 12.8 µM]	inactive: -4.17% [at 12.8 µM]	inactive: 0.377% [at 12.8 µM]	inactive: 0.362% [at 12.8 µM]	inactive: 0.251% [at 12.8 µM]	inactive: 9.22% [at 12.8 µM]	inactive: 0.957% [at 12.8 µM]	inactive: -15.4% [at 12.8 µM]
O=[N+]([O-])OCC(CO[N+](=O)[O-])(CO[N+](=O)[O-])CO[N+](=O)[O-]	inactive: -3.5%		active: 13.5 µM		active: 4.47 µM	active: 13.5 µM	active: 4.78 µM	active: 15.1 µM		active: 10.7 µM	active: 9.53 µM	active: 6.01 µM	inactive: -19.6%				inactive: -5.3%			
